The source of these data is PubChem BioAssay AID504848 (National Center for Advancing Translational Sciences (NCATS), 2011).

This is a selection; strong and weak results do not stand in their true shares. Records with an inconclusive call do not appear. Activity calls are given as the source filed them. Calls come from the whole dose curve; as a rule, active = well fitted inhibition curve with a large enough effect; inconclusive = small, poorly fitted or top-dose-only effect, or effect the other way; inactive = no such curve, though single readings can be large or run the other way.
Potency is the fitted concentration of half-maximal effect.

A short description of the assay: Confirmation screen for delayed death inhibitors of the malarial parasite plastid, 96 hour incubation. Note: nearly all actives have a fitted effect of over 60% in size. Particulars: P. falciparum luciferase growth in erythrocytes.
As for `Nc1ccccc1[As](=O)(O)c1ccccc1`, the Potency is active: 15.8 µM.
